Results on three compounds are retold here after patent US20240409571A1 (priority 2023, published 2024).

In one assay the test system is PmST3. As to the kind of experiment: Donor substrate specificity of PmST3, one-pot sialylation system. The note with it: for Sialylation: acceptor LacßSph, SiaT PmST3, donor generated in situ from precursor. Format: biochemical, Pasteurella multocida.
The next assay relates to CjCst-I. As to the kind of experiment: Donor substrate specificity of CjCst-I, one-pot sialylation system. Conditions: acceptor LacßSph; SiaT CjCst-I; donor generated in situ from precursor. The class given is biochemical, Campylobacter jejuni.
Assay [1] has as its target CMP-sialic acid synthetase (Neisseria meningitidis, UniProt P0A0Z8, N224H).
A further assay has as its system CjCst-II. The assay is described as follows: Donor substrate specificity of CjCst-II, one-pot sialylation system. Format: biochemical, Campylobacter jejuni. Conditions: donor generated in situ from precursor.
The next assay concerns the target PmST1 (Pasteurella multocida, UniProt Q15KI8). As to the kind of experiment: Donor substrate specificity of wild-type PmST1, one-pot sialylation system. Format: biochemical. Conditions: substance as acceptor substrate.
The mark [2] stands for this setting: one-pot reaction with LacßProN3, SiaT PmST1 or PmST1_M144D.
The mark [3] stands for this setting: one-pot reaction with LacßSph, SiaT CjCst-I.
The mark [4] stands for this setting: one-pot reaction with LacßSph, SiaT PmST3.

Like-named read-outs stand apart in the source and are kept apart here.

Consider `[N-]=[N+]=NC1C(O)O[C@H]([C@@H](CO)N=[N+]=[N-])[C@H]1O` (some centres unmarked), for which the Sialylation with PmST3 and in the assay on CjCst-I was under 10% each time. In addition, the CMP-Sia formation entry in assay [1] (setting [2]), in assay [1] (setting [3]) and in assay [1] (setting [4]) was “Low” each time.

Consider `[N-]=[N+]=NC1C(O)OC(CO)[C@@H](N=[N+]=[N-])[C@@H]1O` (some centres unmarked), for which the Sialylation in the assay on PmST3 is on record as 50-60%; in the assay with CjCst-I it was 60-70%. Moreover, the “Sialylation by CjCst-II, acceptor GM3ßSph” value with CjCst-II (acceptor GM3ßSph) lay within 50 to 60%. In addition, the “Sialylation by CjCst-II, acceptor GM3βProN3” value with CjCst-II (acceptor GM3βProN3) is recorded as “Over 90%”. The CMP-Sia formation entry in assay [1] (setting [2]), in assay [1] (setting [3]) and in assay [1] (setting [4]) was “Good” each time.

Consider “β-D-Galactopyranosyl-(1→3)-(2-acetamido-2-deoxy-β-D-galactopyranosyl)-(→4)-(5,9-diacetamido-3,5,9-trideoxy-D-glycero-α-D-galacto-2-nonulopyranosylonic acid)-(2→8)-(5-acetamido-3,5-dideoxy-D-glycero-α-D-galacto-2-nonulopyranosylonic acid)-(2→3)-β-D-galactopyranosyl-(1→4)-β-D-glucopyranosyl-(1→1)-(2S, 3R, 4E)-2-amino-4-octadecene-1,3-diol”, for which the “activity on sialylating the terminal Gal” value on PmST1 is “no or very low activity”; in the assay with PmST3 (substance as acceptor substrate, PmST3), “no or very low activity”.
